Reference: patent US20100183613A1, “METHODS OF USING MEVALONATE DECARBOXYLASE (MVD) ANTAGONISTS” (NOVARTIS AG, priority 2008, published 2010)

Tested on: Dengue NGC virus
Test: Dengue NGC live virus infection in K562 cells, FACS (anti-E/anti-NS1 double positive cells)
Assay type: cell-based
Settings: K562 infection assay, CC50 over EC50
Description: For compound testing, K562 infection system was used. […] The cell viability is measured by Celltiter Glo.
To determine the EC50 (effective concentration of 50% inhibition of virus growth) and the cytotoxity CC50 (concentration of 50% cell death), a dose response curve covering at least four different concentrations was done in K562 infection. The decrease of the percentage of the dengue positive cells was then plotted against the concentrations of inhibitors, using a nonlinear regression analysis to obtain the EC50. CC50 was calculated using the same method using the cell viability over the same range of inhibitor concentrations.

Row | Compound | therapeutic index (TI) for inhibition of the virus over cell viability
1 | Hymeglusin | 12 fold
2 | C=C(CC[C@]12O[C@H](C(=O)O)[C@@](O)(C(=O)O)[C@](C(=O)O)(O1)[C@H](OC(=O)/C=C/[C@@H](C)C[C@@H](C)CC)[C@H]2O)[C@@H](OC(C)=O)[C@H](C)Cc1ccccc1 [Zaragozic Acid, Zaragozic acid A] | 6 fold
